Source: patent US9732087B2, “Diamino-pyridine, pyrimidine, and pyridazine modulators of the histamine H4 receptor” (JANSSEN PHARMACEUTICA NV, priority 2008, dated 2017)
Read-outs that look alike come from different tables or passages of the source.

Chains of the proteins cited; added tags and fusions are not shown. Lines headed by an entry give the natural chain unless they say otherwise; changes in a name come on top.
UniProt Q9H3N8: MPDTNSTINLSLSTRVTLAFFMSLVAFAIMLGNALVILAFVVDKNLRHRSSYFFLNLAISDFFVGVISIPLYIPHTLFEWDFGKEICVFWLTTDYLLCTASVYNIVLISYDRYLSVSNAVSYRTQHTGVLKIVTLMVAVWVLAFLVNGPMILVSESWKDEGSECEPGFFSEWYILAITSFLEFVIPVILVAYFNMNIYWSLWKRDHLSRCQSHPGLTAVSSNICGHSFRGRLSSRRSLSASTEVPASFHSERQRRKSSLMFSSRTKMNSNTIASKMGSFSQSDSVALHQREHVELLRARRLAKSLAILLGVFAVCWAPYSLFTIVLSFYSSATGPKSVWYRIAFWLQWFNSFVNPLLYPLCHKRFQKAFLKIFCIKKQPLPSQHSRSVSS

Legend:
human H4 receptor [1] = molecular target: T1, human H4 receptor (Homo sapiens (Human), UniProt Q9H3N8); experiment: Binding assay on recombinant human histamine H4 receptor ([3H]histamine competition, SK-N-MC cell membranes)
Description: Binding Assay on Recombinant Human Histamine H4Receptor
Cell pellets from SK-N-MC cells stably or transiently transfected with human H4 receptor (NCBI accession No. AF312230) were used for the binding assays. Cell pellets were homogenized in 50 mM Tris/5 mM EDTA buffer and supernatants from an 800 g spin were collected and recentrifuged at 30,000 g for 30 min. Pellets were rehomogenized in 50 mM Tris/5 mM EDTA buffer. […] Membranes were harvested by rapid filtration using the 96 well Brandel system (Table 1, Brandel) or a cell harvester (Table 1, Cell Harvester) using a Whatman GF/C filter or filter plates treated with 0.5% polyethylenimine (PEI), and washed 4 times with ice-cold 50 mM Tris/5 mM EDTA buffer. Filters were then dried, mixed with scintillant and radioactive counts were determined. […] Where activity is shown as greater than (>) a particular value, the value is the highest concentration tested.

human H4 receptor [2] = molecular target: T1, human H4 receptor; assay type: cell-based; details: apparent pA2 from Schild plot; antagonism of histamine inhibition of forskolin-stimulated cAMP
Description: SK-N-MC cell lines were created that express a reporter gene construct and the human H4 receptor full-coding region (NCBI accession No. AF312230). The reporter gene was β-galactosidase under the control of cyclic AMP-responsive elements. Cells were plated in 96-well plates the night before the assay. Histamine was used as the agonist for all assay. For the H4 receptor, the inhibition of forskolin-stimulated cAMP production was measured. For determination of antagonist activity, compounds were added 10 min prior to the addition of agonist, which was added directly to the cell medium. Forskolin (5 μM final concentration) was added 10 min after the addition of histamine. Cells were returned to the incubator for 6 h at 37° C. The medium was then aspirated, and the cells were washed with […] of phosphate-buffered saline (PBS). Cells were lysed with 25 μL of 0.1X assay buffer (10 mM sodium phosphate, pH 8, 0.2 mM MgSO4, and 0.01 mM MnCl2) and incubated at rt for 10 min. Cells were then incubated for 10 min with 100 μL of 1X assay buffer containing 0.5% (v/v) Triton X-100 and 40 mM β-mercaptoethanol. […] Color was quantitated on a microplate reader by measuring the absorbance at 570 nm. […] Dose ratios were calculated from individual concentration-response curves of agonists at three to five antagonist concentrations. Apparent pA2 values were calculated using a Schild plot (ND=not determined).

[3] = membranes harvested with cell harvester, [3H]histamine 10 nM, average of results, read-out: Cell Harvester Ki

Row | Ki (human H4 receptor [1]; [3]) [nM] | Compound | Ki (human H4 receptor [1]; Cell Harvester Ki (nM)) [nM] | Ki (human H4 receptor [1]; read-out: Brandel Ki) [nM] | also measured
1 | 1 | CN[C@@H]1CCN(c2cnnc(NC3CC4CCC3C4)c2)C1 (stereo partly drawn) [Example 96, N-Bicyclo[2.2.1]hept-2-yl-5-[(3R)-3-(methylamino)pyrrolidin-1-yl]pyridazin-3-amine] | – | – | Ki (human H4 receptor [1]; membranes harvested with 96 well Brandel system, [3H]histamine 10 nM, average of results, read-out: Brandel Ki): 1 nM
2 | 5.51 | CN[C@H]1CCN(c2cnnc(NC3CC4CCC3C4)c2)C1 (stereo partly drawn) [Example 381, N-Bicyclo[2.2.1]hept-2-yl-5-[(3S)-3-(methylamino)pyrrolidin-1-yl]pyridazin-3-amine] | – | – | –

Further lines, the compound ahead of its results:

Row | Compound | Ki (human H4 receptor [1]; [3]) [nM] | Ki (human H4 receptor [1]; Cell Harvester Ki (nM)) [nM] | Ki (human H4 receptor [1]; read-out: Brandel Ki) [nM] | also measured
3 | CN[C@@H]1CCN(c2ccnc(NC3CCCC3)c2)C1 [Example 2, N-Cyclopentyl-4-[(3R)-3-(methylamino)pyrrolidin-1-yl]pyridin-2-amine] | – | 3.83 | – | –
4 | CN[C@H]1CCN(c2ccnc(NCC(C)C)c2)C1 [Example 15, 4-[(3S)-3-(Methylamino)pyrrolidin-1-yl]-N-(2-methylpropyl)pyridin-2-amine] | – | 149 | 54.3 | –
5 | CN[C@@H]1CCN(c2ccnc(NCC(C)C)c2)C1 [Example 22, 4-[(3R)-3-(Methylamino)pyrrolidin-1-yl]-N-(2-methylpropyl)pyridin-2-amine] | – | 1.5 | 1.7 | –
6 | CN[C@H]1CCN(c2ccnc(NC3CCCC3)c2)C1 [Example 228, N-Cyclopentyl-4-[(3S)-3-(methylamino)pyrrolidin-1-yl]pyridin-2-amine] | – | 31.8 | – | pA2 (human H4 receptor [2]): 7.4
